Reference: patent publication US5283321A (priority 1986, dated 1994)

Assay: Control, Sepharose 4 B gel blocked with ethanolamine
Settings: 0.5 mg peptide applied; CNBr sites blocked with ethanolamine; irrigated with PBS

SMILES: CC(C)[C@H](NC(=O)[C@H](CO)NC(=O)[C@H](CCCNC(=N)N)NC(=O)[C@H](CCCNC(=N)N)NC(=O)[C@H](CO)NC(=O)[C@@H](NC(=O)[C@H](Cc1ccc(O)cc1)NC(=O)[C@@H]1CCCN1C(=O)[C@H](CC(N)=O)NC(=O)[C@@H]1CCCN1C(=O)[C@H](CC(N)=O)NC(=O)[C@H](C)NC(=O)[C@H](CCCNC(=N)N)NC(=O)[C@@H](NC(=O)[C@H](CCC(N)=O)NC(=O)[C@@H](N)CCCCN)[C@@H](C)O)[C@@H](C)O)C(=O)N[C@@H](C)C(=O)N[C@@H](CO)C(=O)O [The synthetic peptide, H--Lys--Gln--Thr--Arg--Ala--Asn--Pro--Asn--Pro--Tyr--Thr----Ser--Arg--Arg--Ser--Val--Ala--Ser--OH]
- Synthesized peptide recovered from the eluate of control Sepharose 4 B column: All of the synthesized peptide was recovered from the eluate
